In paper PMC8459920:
The list shows a part of the results.

Protein sequences, listed by entry. Tags and fused reporters are not part of them.
UniProt Q93034, whole entry: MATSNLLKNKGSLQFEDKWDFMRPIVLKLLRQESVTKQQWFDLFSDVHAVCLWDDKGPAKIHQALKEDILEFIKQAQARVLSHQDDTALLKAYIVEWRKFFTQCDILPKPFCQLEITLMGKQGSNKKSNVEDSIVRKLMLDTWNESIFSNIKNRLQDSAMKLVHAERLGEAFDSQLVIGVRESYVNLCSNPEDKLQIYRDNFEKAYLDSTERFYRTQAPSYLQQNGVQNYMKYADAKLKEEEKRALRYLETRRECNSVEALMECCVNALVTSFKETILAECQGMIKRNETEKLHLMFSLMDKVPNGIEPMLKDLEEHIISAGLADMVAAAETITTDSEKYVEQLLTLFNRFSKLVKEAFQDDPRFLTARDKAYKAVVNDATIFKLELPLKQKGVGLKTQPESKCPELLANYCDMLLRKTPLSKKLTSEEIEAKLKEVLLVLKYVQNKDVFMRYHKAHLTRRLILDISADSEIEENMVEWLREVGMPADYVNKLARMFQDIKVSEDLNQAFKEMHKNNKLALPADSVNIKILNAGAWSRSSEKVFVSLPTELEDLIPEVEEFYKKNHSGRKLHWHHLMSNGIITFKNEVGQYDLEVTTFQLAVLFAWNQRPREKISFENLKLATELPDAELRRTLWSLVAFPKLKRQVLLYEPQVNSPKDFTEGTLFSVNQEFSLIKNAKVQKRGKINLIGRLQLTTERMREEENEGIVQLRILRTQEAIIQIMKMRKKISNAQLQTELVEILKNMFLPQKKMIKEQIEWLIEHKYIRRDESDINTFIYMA

Target: Cullin-5 (UniProt Q93034)
Assay: cross-link between two proteins; cross-linking mass spectrometry

In the case of Virion infectivity factor, P69723, the “listed as a hit” value is reported as “yes”.
